We go through one substance from US20250268857A1 (priority 2020, published 2025).

The experiment relates to methicillin-resistant Staphylococcus aureus (IID1677). The settings on record: 7,500 ppm agent diluted as appropriate.

Turning to zinc gluconate, the “Minimum Inhibitory Concentration” value worked out at 200 ppm.
